Assay results published in patent publication US12329823B2 (The Scripps Research Institute, priority 2021, dated 2025).

Test: general procedure: Fmoc solid-phase peptide synthesis; 2-chlorotrityl chloride resin (Novabiochem; Sub 1.00 mmol/g); Fmoc Rink amide MBHA-type resin (Sub 0.28 mmol/g); HBTU/DIEA; HATU/DIEA
Conditions: cyclisation step, HOAc

Q: Which results are given for “H-Y[Aib]EGTFTSDYSIYCDKQAA[Aib]CFVNWLIAGGPSSGAPPPS-NH2 (linker 14-21 via X1; N-terminus assumed; SMILES CC[C@H](C)[C@H](NC(=O)[C@H](CC(C)C)NC(=O)[C@H](Cc1c[nH]c2ccccc12)NC(=O)[C@H](CC(N)=O)NC(=O)[C@@H](NC(=O)[C@H](Cc1ccccc1)NC(=O)[C@@H]1CSCC(=O)NCCN(C(=O)CCC(=O)NCCOCCOCCC(=O)NCCOCCOCCC(=O)NCCCC[C@H](NC(=O)CCCCCCCCCCCCCCCCC(=O)O)C(=O)O)CCNC(=O)CSC[C@H](NC(=O)[C@H](Cc2ccc(O)cc2)NC(=O)[C@@H](NC(=O)[C@H](CO)NC(=O)[C@H](Cc2ccc(O)cc2)NC(=O)[C@H](CC(=O)O)NC(=O)[C@H](CO)NC(=O)[C@@H](NC(=O)[C@H](Cc2ccccc2)NC(=O)[C@@H](NC(=O)CNC(=O)[C@H](CCC(=O)O)NC(=O)C(C)(C)NC(=O)[C@@H](N)Cc2ccc(O)cc2)[C@@H](C)O)[C@@H](C)O)[C@@H](C)CC)C(=O)N[C@@H](CC(=O)O)C(=O)N[C@@H](CCCCN)C(=O)N[C@@H](CCC(N)=O)C(=O)N[C@@H](C)C(=O)N[C@@H](C)C(=O)NC(C)(C)C(=O)N1)C(C)C)C(=O)N[C@@H](C)C(=O)NCC(=O)NCC(=O)N1CCC[C@H]1C(=O)N[C@@H](CO)C(=O)N[C@@H](CO)C(=O)NCC(=O)N[C@@H](C)C(=O)N1CCC[C@H]1C(=O)N1CCC[C@H]1C(=O)N1CCC[C@H]1C(=O)N[C@@H](CO)C(N)=O)”?
A: cyclisation yield: 58.15%; final HPLC purity (HPLC, LC-QTOF with UV detection at 214 nm): 96.85%

Some peptides are written in HELM: one residue between dots, names in brackets for other building blocks, links after the first $. Numbered stars: 1 amine (or outer) side, 2 acyl side, 3 side chain; on linkers, the order of the positions; unused ones are H or OH. Bridge positions count the residues as written; N and C are the ends. Square brackets hold non-standard residues; d marks the D form. X1 = O=C(O)CCCCCCCCCCCCCCCCC(=O)N[C@@H](CCCCNC(=O)CCOCCOCCNC(=O)CCOCCOCCNC(=O)CCC(=O)N(CCNC(=O)C[*:1])CCNC(=O)C[*:2])C(=O)O; Aib = CC(C)(N)C(=O)O
